A mixed list of measured activities; the numbers were collected in NIAID ChemDB.

Shared fields: growth or infection tests; organism: Mycobacterium bovis

A number after MIC or MFC names an inhibition level or a share of isolates.

structure | strain | method | read-out | tested at | result
Oc1ccc(Nc2cnc3cc4ccccc4cc3n2)cc1O | BCG | - | EC50 | - | <1 µM
CC(=O)Nc1cc2c3c(c1)n(C/C=C\Cn1cc(C)c(=O)[nH]c1=O)c(=O)n3CCC2 | BCG Pasteur | resazurin / absorbance | EC50 | - | >160 µg/mL
O=c1[nH]c2ccccc2c(O)c1-c1ccccc1 | AN5 lux | luminescence | MIC90 | - | 7.2 µM
CCc1cn([C@H]2C[C@H](I)[C@@H](CO)O2)c(=O)[nH]c1=O | BCG | resazurin | inhibition | 100 µg/mL | 0%
CCCCCCCCCCC[C@H](CC(=O)[C@@H](CC(C)C)NC=O)CC1OC(=O)[C@H]1CCCCCC | - | - | MIC99 | - | 7.5 µg/mL
O=c1[nH]c2ccc(O)cc2c(O)c1-c1ccccc1 | AN5 lux | luminescence | MIC90 | - | 10.4 µM
NNC(=O)c1ccncc1 | BCG (PMV261::KASB) | - | MIC | - | 0.05 µg/mL
[N-]=[N+]=N[C@H]1C[C@H](n2cc(F)c(=O)[nH]c2=O)O[C@@H]1CO | BCG | resazurin | inhibition | 100 µg/mL | 0%
Clc1ccc(-c2cnc3cc4ccccc4cc3n2)cc1 | BCG | - | EC50 | - | <1 µM
CCc1cc(C(N)=S)ccn1 | BCG (PMV261) | - | MIC | - | 2 µg/mL
COc1cccc2c(O)c(-c3ccccc3)c(=O)[nH]c12 | AN5 lux | luminescence | MIC90 | - | 8.6 µM
c1ccc2cc3nc4c(nc3cc2c1)CCCC4 | BCG | - | EC50 | - | 12 µM
C=C/C(C)=C/[C@@]1(C)SC(=O)C(C)=C1O | BCG (PMV261) | - | MIC | - | 30 µg/mL
Cc1cn(C/C=C\Cn2c(=O)n3c4c(cc(N)cc42)CCC3)c(=O)[nH]c1=O | BCG Pasteur | resazurin / absorbance | EC50 | - | >160 µg/mL
CC(C)CCOc1ccc(NC(=S)Nc2ccc(OCCC(C)C)cc2)cc1 | BCG (PMV261) | - | MIC | - | 0.25–0.5 µg/mL
O=c1[nH]c2ccc(F)cc2c(O)c1-c1ccccc1 | AN5 lux | luminescence | MIC90 | - | 5.3 µM

A second listing of 2 rows from above:

| structure | strain | method | read-out | tested at | result |
|---|---|---|---|---|---|
| NNC(=O)c1ccncc1 | BCG (PMV261::KASB) | - | MIC | - | 0.05 µg/mL |
| Oc1ccc(Nc2cnc3cc4ccccc4cc3n2)cc1O | BCG | - | EC50 | - | <1 µM |

a–b is a range or a potency band. Lines come from different laboratories, so protocols vary. ECn: concentration that inhibits the pathogen or its effect by n%. Inhibition is in % at the dose shown (toxicity tests: loss of growth or viability). An empty or dashed field is not shown.